# Single amino acid changes in Zika NS2B-NS3 and viral growth

Protein: NS2B and the protease part of NS3 of Zika virus strain MR766. Positions count along the chain below; NS2B spans 2-131 and NS3 starts at 132.
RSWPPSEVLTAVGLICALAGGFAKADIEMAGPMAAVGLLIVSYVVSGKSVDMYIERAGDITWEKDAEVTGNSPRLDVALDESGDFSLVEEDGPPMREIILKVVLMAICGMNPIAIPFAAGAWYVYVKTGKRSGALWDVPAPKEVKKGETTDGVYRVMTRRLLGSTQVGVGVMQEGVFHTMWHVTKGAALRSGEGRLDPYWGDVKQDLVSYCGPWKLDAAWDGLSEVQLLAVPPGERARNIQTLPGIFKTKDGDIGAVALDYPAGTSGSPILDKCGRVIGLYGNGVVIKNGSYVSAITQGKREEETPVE

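Libraries of single mutants were passaged as virus pools on Huh-7.5 cells. Sequencing of three replicate libraries (two for positions 207-308) was averaged into one effect per change. The study looked for pockets that tolerate few changes, as a guide for inhibitor design.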

Scale: log2 effect, wild type = 0; the lower, the more harmful to the virus.
A change reads original residue, position, new residue.
All changes here are to leucine.
Position 1 still belongs to NS2A. In the paper, -1 or higher counts as tolerated.

I99L gave -0.05. K101L read -8.37. V102L gave -0.01. For V103L the result was -1.06. M105L read -6.32. With A106L the assay gave -1.85. For I107L the result was -0.21.

For C108L the result was -7.62. With G109L the assay gave -7.03. With M110L the assay gave 0.30. N111L read -2.75. With P112L the assay gave -6.98. For I113L the result was -1.39. A114L gave -1.47.

For I115L the result was -1.18. P116L gave -6.78. F117L gave -1.07. A118L read -6.63. A119L read -2.64. With G120L the assay gave -2.05. With A121L the assay gave -1.32.

W122L read -5.19. With Y123L the assay gave -0.52. With V124L the assay gave -0.15. Y125L gave -2.94. V126L gave -1.22. With K127L the assay gave -7.92. With T128L the assay gave -7.54.

For G129L the result was -7.08. K130L gave -7.52. For R131L the result was -7.56. With S132L the assay gave -7.19. G133L read -7.11. A134L gave -7.03. W136L gave -6.25.

D137L gave -7.68. V138L gave -1.68. P139L read -7.01. For A140L the result was -6.62. P141L gave -4.93. With K142L the assay gave -3.39. E143L read -0.91.

V144L read -2.26. K145L read -1.29. For K146L the result was -1.42. For G147L the result was -4.05. E148L read -1.41. For T149L the result was -6.27. With T150L the assay gave -3.00.

D151L read -6.84. For G152L the result was -7.40.

Values above 0 are not proof of better growth: six high scorers were tested one by one, five grew less well than wild type and one about as well.
The region was split into three libraries (1-103, 104-206, 207-308).

Data from the supplement of Ni et al. 2025, doi:10.1038/s41467-025-63602-z.